Like-named read-outs stand apart in the source and are kept apart here.
What was measured:
[1] = tested on: human cytomegalovirus (HCMV) strain AD-169; test: Antiviral effect of different exposure times, HCMV strain AD-169 (plaque reduction); format: cell-based; conditions: 224 μg/ml left on the cells for short periods of time
[2] = tested on: human cytomegalovirus (HCMV), strain AD-169; test: Antiviral test (plaque reduction) versus HCMV, strain AD-169, in MRC-5 cells; format: cell-based; conditions: Example 1; for Number of Plaques: average of two wells
3T3 cells = test: Cytotoxicity (CD50) in 3T3 cells of the MCMV plaque reduction test; conditions: Example 8
MRC-5 cells = test: Cytotoxicity (CD50) in the MRC-5 cells of the plaque reduction tests
[3] = tested on: murine cytomegalovirus, strain Smith MSGV; test: Antiviral test (plaque reduction) versus murine cytomegalovirus, strain Smith MSGV, in 3T3 cells; format: cell-based; conditions: Example 8
[4] = tested on: HCMV, strain C8805-37 (DHPG-resistant); conditions: Example 3

ganciclovir
Anti-HCMV activity [1]: essentially no anti-HCMV activity | % Inhibition ([2]; 250 μg/ml): 100% | Number of Plaques ([2]; 250 μg/ml): 0 | % Inhibition ([2]; 500 μg/ml): 100% | Number of Plaques ([2]; 500 μg/ml): 0 | CD50 (3T3 cells): >100 µg/mL | CD50 (MRC-5 cells; Example 3, cells exposed 4 days): >1000 µg/mL | CD50 (MRC-5 cells; Table 10 summary, DHPG resistant HCMV test): (>1000) μg/ml | % Reduction ([3]; 0.32 μg/ml (row r14)): 0% | Number of Plaques ([3]; 0.32 μg/ml (row r14)): 16 | % Reduction ([3]; 1.0 μg/ml): 42% | Number of Plaques ([3]; 1.0 μg/ml): 13 | % Reduction ([3]; 3.2 μg/ml): 72% | Number of Plaques ([3]; 3.2 μg/ml): 6 | % Reduction ([3]; 10 μg/ml): 96% | Number of Plaques ([3]; 10 μg/ml): 1 | % Reduction ([3]; 31.6 μg/ml): 100% | Number of Plaques ([3]; 31.6 μg/ml): 0 | % Reduction ([3]; 100 μg/ml): 100% | Number of Plaques ([3]; 100 μg/ml): 0 | Percent Inhibition Compared to Controls ([4]; 0.32 μg/ml): 0% | Percent Inhibition Compared to Controls ([4]; 1.0 μg/ml): 21% | Percent Inhibition Compared to Controls ([4]; 3.2 μg/ml): 26% | Percent Inhibition Compared to Controls ([4]; 10.0 μg/ml, cells exposed 4 days): 51%

Reference: patent US6686393B1, “Pharmaceutical compositions having antiviral activity against human cytomegalovirus” (Murdock International Corporation, priority 1990, dated 2004)
